Data: US9625458B2, “Biosensor” (priority 2002, dated 2017)
Residue numbers refer to the chain shown, from its start. Numbers in names are those of the source.

B1: dipeptide BP D450C JPW4039 (conjugate, UniProt P23847 29-535, looked up, variant D450C)
Dipeptide-binding protein: KTLVYCSEGSPEGFNPQLFTSGTTYDASSVPLYNRLVEFKIGTTEVIPGLAEKWEVSEDGKTYTFHLRKGVKWHDNKEFKPTRELNADDVVFSFDRQKNAQNPYHKVSGGSYEYFEGMGLPELISEVKKVDDNTVQFVLTRPEAPFLADLAMDFASILSKEYADAMMKAGTPEKLDLNPIGTGPFQLQQYQKDSRIRYKAFDGYWGTKPQIDTLVFSITPDASVRYAKLQKNECQVMPYPNPADIARMKQDKSINLMEMPGLNVGYLSYNVQKKPLDDVKVRQALTYAVNKDAIIKAVYQGAGVSAKNLIPPTMWGYNDDVQDYTYDPEKAKALLKEAGLEKGFSIDLWAMPVQRPYNPNARRMAEMIQADWAKVGVQAKIVTYEWGEYLKRAKDGEHQTVMMGWTGDNGDPDNFFATLFSCAASEQGSNYSKWCYKPFEDLIQPARATCDHNKRVELYKQAQVVMHDQAPALIIAHSTVFEPVRKEVKGYVVDPLGKHHFENVSIE
modifications: JPW4039 dye conjugate
B2: ribose BP A234C JPW4039 (conjugate, UniProt P02925 26-296, looked up, variant A234C)
Ribose import binding protein …: KDTIALVVSTLNNPFFVSLKDGAQKEADKLGYNLVVLDSQNNPAKELANVQDLTVRGTKILLINPTDSDAVGNAVKMANQANIPVITLDRQATKGEVVSHIASDNVLGGKIAGDYIAKKAGEGAKVIELQGIAGTSAARERGEGFQQAVAAHKFNVLASQPADFDRIKGLNVMQNLLTAHPDVQAVFAQNDEMALGALRALQTAGKSDVMVVGFDGTPDGEKAVNDGKLAATICQLPDQIGAKGVETADKVLKGEKVQAKYPVDLKLVVKQ
modifications: JPW4039 dye conjugate
B3: ribose BP A234C JPW4042 (conjugate, UniProt P02925 26-296, looked up, variant A234C)
Ribose import binding protein …: B2 Ribose import binding protein …
modifications: JPW4042 dye conjugate
B4: ribose BP A234C JPW4045 (conjugate, UniProt P02925 26-296, looked up, variant A234C)
Ribose import binding protein …: B2 Ribose import binding protein …
modifications: JPW4045 dye conjugate
B5: ribose BP A234C Acrylodan (conjugate, UniProt P02925 26-296, looked up, variant A234C)
Ribose import binding protein …: B2 Ribose import binding protein …
modifications: acrylodan label
B6: ribose BP A234C NBD (conjugate, UniProt P02925 26-296, looked up, variant A234C)
Ribose import binding protein …: B2 Ribose import binding protein …
modifications: NBD conjugate
B7: ribose BP D165C JPW4039 (conjugate, UniProt P02925 26-296, looked up, variant D165C)
Ribose import binding protein …: B2 Ribose import binding protein … with D165C, C234A
modifications: JPW4039 dye conjugate
B8: dipeptide BP D450C JPW4042 (conjugate, UniProt P23847 29-535, looked up, variant D450C)
Dipeptide-binding protein: B1 Dipeptide-binding protein
modifications: JPW4042 dye label
B9: ribose BP D165C JPW4042 (conjugate, UniProt P02925 26-296, looked up, variant D165C)
Ribose import binding protein …: B2 Ribose import binding protein … with D165C, C234A
modifications: JPW4042 dye conjugate
B10: ribose BP D165C JPW4045 (conjugate, UniProt P02925 26-296, looked up, variant D165C)
Ribose import binding protein …: B2 Ribose import binding protein … with D165C, C234A
modifications: JPW4045 label
B11: ribose BP D165C Acrylodan (conjugate, UniProt P02925 26-296, looked up, variant D165C)
Ribose import binding protein …: B2 Ribose import binding protein … with D165C, C234A
modifications: acrylodan conjugate
B12: ribose BP E192C JPW4039 (conjugate, UniProt P02925 26-296, looked up, variant E192C)
Ribose import binding protein …: B2 Ribose import binding protein … with E192C, C234A
modifications: JPW4039 dye label
B13: ribose BP E192C JPW4042 (conjugate, UniProt P02925 26-296, looked up, variant E192C)
Ribose import binding protein …: B2 Ribose import binding protein … with E192C, C234A
modifications: JPW4042 label
B14: ribose BP E192C JPW4045 (conjugate, UniProt P02925 26-296, looked up, variant E192C)
Ribose import binding protein …: B2 Ribose import binding protein … with E192C, C234A
modifications: JPW4045 dye conjugate
B15: ribose BP E192C Fluorescein (conjugate, UniProt P02925 26-296, looked up, variant E192C)
Ribose import binding protein …: B2 Ribose import binding protein … with E192C, C234A
modifications: fluorescein label
B16: ribose BP E192C NBD (conjugate, UniProt P02925 26-296, looked up, variant E192C)
Ribose import binding protein …: B2 Ribose import binding protein … with E192C, C234A
modifications: NBD dye conjugate
B17: dipeptide BP D450C JPW4045 (conjugate, UniProt P23847 29-535, looked up, variant D450C)
Dipeptide-binding protein: B1 Dipeptide-binding protein
modifications: JPW4045 dye label
B18: ribose BP L236C JPW4039 (conjugate, UniProt P02925 26-296, looked up, variant L236C)
Ribose import binding protein …: B2 Ribose import binding protein … with C234A, L236C
modifications: JPW4039 dye conjugate
B19: ribose BP L236C JPW4042 (conjugate, UniProt P02925 26-296, looked up, variant L236C)
Ribose import binding protein …: B2 Ribose import binding protein … with C234A, L236C
modifications: JPW4042 dye conjugate
B20: ribose BP L236C JPW4045 (conjugate, UniProt P02925 26-296, looked up, variant L236C)
Ribose import binding protein …: B2 Ribose import binding protein … with C234A, L236C
modifications: JPW4045 dye label
B21: ribose BP L236C Fluorescein (conjugate, UniProt P02925 26-296, looked up, variant L236C)
Ribose import binding protein …: B2 Ribose import binding protein … with C234A, L236C
modifications: fluorescein conjugate
B22: ribose BP L236C NBD (conjugate, UniProt P02925 26-296, looked up, variant L236C)
Ribose import binding protein …: B2 Ribose import binding protein … with C234A, L236C
modifications: NBD label
B23: ribose BP L265C JPW4039 (conjugate, UniProt P02925 26-296, looked up, variant L265C)
Ribose import binding protein …: B2 Ribose import binding protein … with C234A, L265C
modifications: JPW4039 label
B24: ribose BP L265C JPW4042 (conjugate, UniProt P02925 26-296, looked up, variant L265C)
Ribose import binding protein …: B2 Ribose import binding protein … with C234A, L265C
modifications: JPW4042 label
B25: ribose BP L265C JPW4045 (conjugate, UniProt P02925 26-296, looked up, variant L265C)
Ribose import binding protein …: B2 Ribose import binding protein … with C234A, L265C
modifications: JPW4045 label

Assay: Fluorescence emission spectra without and with saturating ligand (wavelength shift, ΔIstd, ΔRmax)
Conditions: for λmax,apo (nm): absence of ligand; for ΔIstd: standard intensity change; for ΔIstd / ΔRmax: unbound vs ligand-saturated; for ΔRmax: standard ratiometric change
Method in brief: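 Emission spectra of bPBP–fluorophore conjugates (50–1000 nM protein, 25 °C, stirred) recorded without and with saturating ligand, using fluorophore-specific excitation. Wavelength shift, ΔIstd (intensity change at the mid-point wavelength) and ΔRmax (maximal ratiometric change over enumerated band pairs, 2 nm steps, 10 nm width) derived.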

[1] = emission maximum, saturating ligand (ligand column)
[2] = wavelength of emission maximum, saturating ligand

Molecule	λmax,apo (nm) (emission maximum)	λmax,sat (nm) [1]	ΔIstd	ΔRmax	λmax,apo (nm) (wavelength of emission maximum)	λmax,sat (nm) [2]
B1	602	604	0.20	0.29	–	–
B2	–	–	–	–	598	600
B3	–	–	–	–	668	654
B4	–	–	–	–	636	578
B5	–	–	–	–	504	522
B6	–	–	–	–	546	548
B7	–	–	–	–	589	593
B8	666	664	0.20	1.08	–	–
B9	–	–	–	–	650	652
B10	–	–	–	–	646	647
B11	–	–	–	–	501	500
B12	–	–	–	–	598	598
B13	–	–	–	–	646	679
B14	–	–	–	–	646	666
B15	–	–	–	–	526	523
B16	–	–	–	–	546	540
B17	663	666	0.23	1.18	–	–
B18	–	–	–	–	589	588
B19	–	–	–	–	646	670
B20	–	–	–	–	643	658
B21	–	–	–	–	520	520
B22	–	–	–	–	518	525
B23	–	–	–	–	600	596
B24	–	–	–	–	650	654
B25	–	–	–	–	669	663
